Values joined by “and” are separate entries in the source; they are usually repeats but may differ in a detail not shown here. Identical values can stand only once.
Tested on: M. tuberculosis 103471
Assay: Antimycobacterial activity, MIC in Middlebrook 7H9 broth (NCCLS procedure)
Type: cell-based
Conditions: MNTD50/MIC ratio, VERO cells vs M. tuberculosis 103471

| SMILES | Protection Index (PI) |
| --- | --- |
| Cc1c(CN2CCN(C)CC2)cc(-c2ccc(Cl)cc2)n1-c1ccc(Cl)cc1 [BM212, 1-{[1,5-bis(4-chlorophenyl)-2-methyl-1H-pyrrol-3-yl]methyl}-4-methylpiperazine] | 5.7 and 5.6 |
| Cc1c(CN2CCSCC2)cc(-c2ccccc2Cl)n1-c1ccc(F)cc1 [Compound 6a] | 1 |
| Cc1c(CN2CCN(C)CC2)cc(-c2ccccc2Cl)n1-c1ccc(F)cc1 [Compound 6b] | 0.25 |
| Cc1c(CN2CCSCC2)cc(-c2ccccc2F)n1-c1ccc(F)cc1 [Compound 6c] | 32 |
| Cc1c(CN2CCN(C)CC2)cc(-c2ccccc2F)n1-c1ccc(F)cc1 [Compound 6d] | 0.25 |
| Cc1ccc(-c2cc(CN3CCSCC3)c(C)n2-c2ccc(F)cc2)cc1 [Compound 6e, N-(p-fluorophenyl)-2-methyl-3-thiomorpholinomethyl-5-(p-methylphenyl)pyrrole] | 160 |
| Cc1ccc(-c2cc(CN3CCN(C)CC3)c(C)n2-c2ccc(F)cc2)cc1 [Compound 6f] | 2 |
| Cc1c(CN2CCSCC2)cc(-c2ccc(Cl)cc2Cl)n1-c1ccc(F)cc1 [Compound 6g] | 32 |
| Cc1c(CN2CCN(C)CC2)cc(-c2ccc(Cl)cc2Cl)n1-c1ccc(F)cc1 [Compound 6h] | 2 |
| Cc1c(CN2CCSCC2)cc(-c2ccc(F)cc2F)n1-c1ccc(F)cc1 [Compound 6i] | 32 |
| Cc1c(CN2CCN(C)CC2)cc(-c2ccc(F)cc2F)n1-c1ccc(F)cc1 [Compound 6j] | 2 |
| Cc1c(CN2CCSCC2)cc(-c2ccc(F)cc2)n1-c1ccccc1Cl [Compound 7a] | 4 |
| Cc1c(CN2CCN(C)CC2)cc(-c2ccc(F)cc2)n1-c1ccccc1Cl [Compound 7b] | 2 |
| Cc1c(CN2CCN(C)CC2)cc(-c2ccc(F)cc2)n1-c1ccccc1F [Compound 7d] | 1 |
| Cc1ccc(-n2c(-c3ccc(F)cc3)cc(CN3CCSCC3)c2C)cc1 [Compound 7e] | 2 |
| Cc1ccc(-n2c(-c3ccc(F)cc3)cc(CN3CCN(C)CC3)c2C)cc1 [Compound 7f] | 0.5 |
| Cc1c(CN2CCSCC2)cc(-c2ccc(F)cc2)n1-c1ccc(Cl)cc1Cl [Compound 7g] | 4 |
| Cc1c(CN2CCN(C)CC2)cc(-c2ccc(F)cc2)n1-c1ccc(Cl)cc1Cl [Compound 7h] | 0.5 |
| Cc1c(CN2CCSCC2)cc(-c2ccc(F)cc2)n1-c1ccc(F)cc1F [Compound 7i] | 8 |
| Cc1c(CN2CCN(C)CC2)cc(-c2ccc(F)cc2)n1-c1ccc(F)cc1F [Compound 7j] | 1 |
| Cc1c(CN2CCSCC2)cc(-c2ccc(F)cc2)n1-c1cccc2ccccc12 [Compound 7k] | 0.5 |
| Cc1c(CN2CCN(C)CC2)cc(-c2ccc(F)cc2)n1-c1cccc2ccccc12 [Compound 7l] | 1 |
| NNC(=O)c1ccncc1 [Isoniazid, reference compound] | 128 |
| CO[C@H]1/C=C/O[C@@]2(C)Oc3c(C)c(O)c4c(O)c(c(/C=N/N5CCN(C)CC5)c(O)c4c3C2=O)NC(=O)/C(C)=C\C=C\[C@H](C)[C@H](O)[C@@H](C)[C@@H](O)[C@@H](C)[C@H](OC(C)=O)[C@@H]1C [Rifampin, reference compound] | 213 |
| [H]/N=C(/N)N[C@H]1[C@H](O)[C@@H](O)[C@H](O[C@@H]2O[C@@H](C)[C@](O)(C=O)[C@H]2O[C@@H]2O[C@@H](CO)[C@H](O)[C@@H](O)[C@@H]2NC)[C@@H](N/C(N)=N\[H])[C@@H]1O [Streptomycin, reference compound] | 128 |
